# Reference: PubChem BioAssay AID651820 (National Center for Advancing Translational Sciences (NCATS), 2012)
# Only a part is listed here, and it is no random draw. Inconclusive results are not listed. Calls of active or inactive are those of the source. Calls follow the shape of the dose curve; as a rule, active = well fitted inhibition curve with a large enough effect; inconclusive = small, poorly fitted or top-dose-only effect, or another doubt; inactive = no such curve, though single readings can be large or run the other way.
# Assay: qHTS Assay for Inhibitors of Hepatitis C Virus (HCV)
# Conditions: Huh7.5.1 HCVcc-Cre (HCVcc is cell-culture hepatitis C virus) infection, luciferase reporter, 44 h; series mostly up to 41.8 µM; activity change, negative = inhibition: at the top concentration
# Text: Hepatitis C virus (HCV) infects about 200 million people in the world. Many infected people progress to chronic liver disease including cirrhosis with a risk of developing liver cancer. To date, there is no effective vaccine for hepatitis C. Current therapy based on interferon is only effective in about half of the patients and is associated with significant adverse effects. The fraction of people with HCV who can complete a successful treatment is estimated to be no more than 10 percent. Recent development of direct-acting antivirals against HCV, such as protease and polymerase inhibitors, is promising but still requires combination with peginterferon and ribavirin for maximal efficacy. In addition, these agents are associated with high rate of resistance and many have significant side effects. Due to the lack of a culture system for infectious HCV, the search for new HCV drugs has been greatly hampered. […] High-throughput screening (HTS) with an infectious HCV system would cover the complete spectrum of potentially druggable targets in all stages of HCV lifecycle, and would have more biological relevance than other cell-based assays. Moreover, targeting several key processes in the viral life cycle may not only increase antiviral efficacy; more importantly, it may also reduce the capacity of the virus to develop resistance to the compound. The goal of this project is to identify novel HCV inhibitors as new therapies for hepatitis C, using a highly sensitive and specific assay platform which is based on a HCV infectious cell culture system established in the laboratory and adapted for high-throughput HCV drug screen. NIH Chemical Genomics Center [NCGC] NIH Molecular Libraries Probe Centers Network [MLPCN] MLPCN Grant: MH095511 Assay Submitter (PI): Jake Liang, NIDDK
# The assay will start with plating 1,000 cells/well in 3 µL volume and culture for 4 h. Then 23 nL of compounds from the library collection will be added to each well, followed by adding 2.5 µL of HCVcc-Cre virus (~ 0.5 moi) and further cultured for 44 h before the luciferase assay. A volume of 4.5 µL luciferase substrates will be added to each well and the plates will be incubated at room temperature for 15 min. and then read for 15 sec. for the luciferase activity
# % is scaled to controls: 0 for no effect and ±100 for the full control effect.
SMILES,"activity change, negative = inhibition",Potency
Cc1ccc(N/C(=N/P(=O)(N2CCOCC2)N2CCOCC2)N2CCOCC2)cc1,inactive: 0.944%,
COc1ccccc1OP(=O)(Nc1ccc(C)cn1)Oc1ccccc1OC,inactive: -5.48%,
Cc1ccc(OP(=O)(Nc2nccs2)Oc2ccc(C)cc2)cc1,inactive: 12.1%,
CN1CCCC(OC(=O)C(c2ccccc2)c2ccccc2)C1 (centres undefined),inactive: 7.54%,
CCN(N=Nc1nonc1N)c1nonc1N,inactive: 4.3%,
CC(=O)Nc1ccc([As](=O)(O)O)cc1,inactive: 6.53%,
O=C(O)c1ccccc1[As](=O)(O)O,inactive: 11%,
CCCC1OP(N)(=O)OCC1CC (centres undefined),inactive: 14.4%,
O=P(Nc1nc2ccc(Cl)cc2s1)(c1ccccc1)c1ccccc1,inactive: -9.18%,
Cc1cc(SC(NC(=O)c2ccc(F)cc2)C(Cl)(Cl)Cl)ncn1 (centres undefined),inactive: 1.43%,
CCOP(=O)(Nc1ccccc1)OCC,inactive: 12%,
Cc1ccc(NP(=O)(Oc2ccccc2F)Oc2ccccc2F)nc1,inactive: 6.3%,
CC(C)(C)C(=O)NC(Sc1ccncn1)C(Cl)(Cl)Cl (centres undefined),inactive: 9.23%,
O=[N+]([O-])c1ncn(CCn2ncnc2[N+](=O)[O-])n1,inactive: 18.1%,
COC(=O)C1(C)COP(=O)(Nc2ccccc2)OC1 (centres undefined),inactive: 29.7%,
O=[N+]([O-])c1cccc(NC2=NCC(CBr)S2)c1 (centres undefined),inactive: 1.73%,
O=C(O)CNc1ccc([As](=O)(O)O)cc1,inactive: 6.93%,
O=P1(N(CCCl)CCCl)OCCCS1 (centres undefined),inactive: 4.2%,
O=C(Nc1cc([As](=O)(O)O)ccc1O)c1ccccc1,inactive: 5.73%,
Nc1ccc([As](=O)(O)c2ccc(N)cc2)cc1,inactive: 16.7%,
CCN(/C(=N/P(=O)(N1CCOCC1)N1CCOCC1)N1CCOCC1)c1ccc(OC)cc1,inactive: 5.6%,
CC1=CC2OC3CC4OC(=O)/C=C/C=CC(C(C)O)OCC(O)C(C)CC(=O)OCC2(CC1O)C4(C)C31CO1 (centres undefined),,active: 10 µM

SMILES,"activity change, negative = inhibition",Potency
CC(C)=N/N=C(\N)N[N+](=O)[O-],inactive: -0.846%,
CN(C)C(=O)OCCc1n(C)cc[n+]1C,inactive: -2.78%,
CC1CCN(C(=O)Oc2c(Cl)cc(Cl)c3cccnc23)CC1,inactive: -22.3%,
COc1ccc(C2=NCC(CBr)S2)cc1 (centres undefined),inactive: 11%,
O=[N+]([O-])c1cccc2n[nH]nc12,inactive: 1.74%,
CC(=O)N1C2C3N(C(C)=O)C1C1N(C(C)=O)C(C(N1C(C)=O)N3C(C)=O)N2C(C)=O,inactive: 17.4%,
Cc1ccc(NP(=O)(Oc2ccccc2)Oc2ccccc2)nc1,inactive: -4.89%,
CC(C)C(=O)NC(Sc1ccccc1)C(Cl)(Cl)Cl (centres undefined),inactive: 27.5%,
O=P(Nc1nccs1)(c1ccccc1)c1ccccc1,inactive: 10.4%,
c1nnnn1CCn1cnnn1,inactive: -2.14%,
O=[N+]([O-])c1ccc(O)c(/C=N/Nc2ccc([N+](=O)[O-])cc2[N+](=O)[O-])c1,inactive: 5.76%,
O=[N+]([O-])c1ncn(CCn2cnc([N+](=O)[O-])n2)n1,inactive: -4.44%,
O=[As](O)(c1ccccc1)c1ccc(O)cc1,inactive: 15.6%,
C(Cc1nn[nH]n1)Cc1nn[nH]n1,inactive: 26.1%,
Nc1ccc([As](=O)(O)c2ccc([N+](=O)[O-])cc2)cc1,inactive: 0.168%,
COc1ccc(N)c([N+](=O)[O-])c1[N+](=O)[O-],inactive: 6.71%,
O=P(Nc1ccccn1)(c1ccc(Br)cc1)c1ccc(Br)cc1,inactive: 5.89%,
CN(C)C1(CNC(=O)c2ccc(Cl)c(S(N)(=O)=O)c2)CCCCC1,inactive: 26.8%,
O=P(Nc1nc2ccccc2s1)(c1ccccc1)c1ccccc1,inactive: 8.97%,
C[C@H]1OP(=O)(Oc2ccccc2)[C@H](O)[C@H](O)[C@H]1N=[N+]=[N-] (some centres undefined),inactive: 13.8%,
COC(=O)c1cc2c(s1)N=C(c1ccccc1)N(C)P2(=O)N1CCOCC1 (centres undefined),inactive: -3.43%,
CC(=O)NC(SC(=S)N(CC(C)C)CC(C)C)C(Cl)(Cl)Cl (centres undefined),inactive: 21.9%,

SMILES,"activity change, negative = inhibition",Potency
O=C(OC1CN2CCC1CC2)c1ccccc1 (centres undefined),inactive: 28.3%,
CCC(=O)N1C2C3N(C(=O)CC)C1C1N(C(=O)CC)C(C(N1C(=O)CC)N3C(=O)CC)N2C(=O)CC,inactive: 14.5%,
CC(NC(=O)COC(=O)C(O)(c1ccccc1)c1ccccc1)c1ccccc1 (centres undefined),inactive: 11.5%,
CN(C)C(=O)Oc1noc2ccccc12,inactive: 15.9%,
CCNC(=S)/N=C(\N)N[N+](=O)[O-],inactive: -3.94%,
O=C(NC1CCS(=O)(=O)C1)NP(=S)(Oc1ccccc1)Oc1ccccc1 (centres undefined),inactive: 8.38%,
c1ccc(-c2nn[nH]n2)c(-c2nn[nH]n2)c1,inactive: 14.3%,
Cc1ccc(NP(=O)(Oc2cccc(C)c2)Oc2cccc(C)c2)nc1,inactive: 12.7%,
O=P1(N(CCCl)CCCl)OCCC2CCCCN21 (centres undefined),inactive: 10.8%,
CC(=O)c1ccc(N2CC2c2ccncc2)cc1 (centres undefined),inactive: 3.72%,
COC(=O)C1(C)COP(=O)(NCc2ccccc2)OC1 (centres undefined),inactive: 27.8%,
Cc1ccccc1CN(C)C(=O)COC(=O)C(O)(c1ccccc1)c1ccccc1,inactive: 8.22%,
C[C@H]1OP(=O)(Oc2ccccc2)C[C@@H]2O[C@@H]21 (some centres undefined),inactive: 2.23%,
C[C@@H]1C=CCP(=O)(Oc2ccccc2)O1 (some centres undefined),inactive: 43.9%,
CC(=O)Nc1ccc([As](=O)(O)O)c(O)c1,inactive: 16.3%,
CC(=O)Nc1ccc(Oc2c([N+](=O)[O-])cc([N+](=O)[O-])cc2[N+](=O)[O-])cc1,inactive: 2.49%,
O=P1(Nc2nc3ccc(Cl)cc3s2)COc2ccccc2O1 (centres undefined),inactive: 0.0627%,
CCOc1ccc(C2=NCC(CBr)S2)cc1 (centres undefined),inactive: 2.65%,
CCc1cc(O)c([N+](=O)[O-])c(C)c1[N+](=O)[O-],inactive: 8.85%,
CC(C)(C)C(=O)NC(Sc1ccccc1)C(Cl)(Cl)Cl (centres undefined),inactive: 16.3%,
